For the assay, the target named is neuraminidase of A/PR8 (H1N1) (Influenza A virus, UniProt P03468). In kind it is biochemical, human influenza A virus A/Puerto Rico/34/8. The settings on record: read-out: IC50 (estimated from % inhibition).

By UniProt entry, the sequences of proteins in these tests, tags left out.
UniProt P03468, whole entry, looked up: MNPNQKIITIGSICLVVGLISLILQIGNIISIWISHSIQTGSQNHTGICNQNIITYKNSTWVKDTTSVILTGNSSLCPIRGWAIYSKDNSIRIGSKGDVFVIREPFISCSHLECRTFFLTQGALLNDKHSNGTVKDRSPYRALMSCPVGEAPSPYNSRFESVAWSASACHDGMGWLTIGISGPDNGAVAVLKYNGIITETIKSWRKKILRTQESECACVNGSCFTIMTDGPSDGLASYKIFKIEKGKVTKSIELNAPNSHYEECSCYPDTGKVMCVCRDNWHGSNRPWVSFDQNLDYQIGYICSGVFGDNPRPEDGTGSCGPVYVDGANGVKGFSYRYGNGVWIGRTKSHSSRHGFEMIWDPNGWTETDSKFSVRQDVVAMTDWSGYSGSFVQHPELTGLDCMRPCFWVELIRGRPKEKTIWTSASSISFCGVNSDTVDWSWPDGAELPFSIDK

As a reminder, the IC50 is the concentration at which inhibition is half-maximal. Take “2-deoxy-2,3-dehydro-N-glycolylneuraminic acid [Neu5Gc2en]”: the IC50 was around 100 µM.
